Values of other authors in patent US7678774B2 (priority 2003, dated 2010).

Test system: SARS coronavirus
Conditions: cited from earlier work

Intron A
In vitro anti-SARS-CoV activity: not found to be active

Roferon
In vitro anti-SARS-CoV activity: not found to be active
